Laboratory results reported in patent US20120022113A1, “METHODS FOR S[…] T[…] ACCUMULATION AND PREVENTING HYPERCYTOKINEMIA” (priority 2009, published 2012).

Tested on: HP influenza
Set-up: species or system mice
Details: mouse, in vivo

`NC(=O)c1ncn([C@@H]2O[C@H](CO)[C@@H](O)[C@H]2O)c1N` [AICAR] was tested, and the “mortality to lethal influenza challenge” value was “reduced mortality” and the “survival after influenza infection” value was “increased survival”.
